Record: PubChem BioAssay AID624099 (ICCB-Longwood, 2012)
In all, the deposit lists about 21,000 reagents; below is a part drawn at random. 497 of them (2.4%) were called active. 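Higher z means weaker E2 silencing; only reporter increases were scored, and knock-downs that hurt cell survival may mask genuine repressor factors.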

Purpose: 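Host factors E2 relies on to silence an HPV18 LCR reporter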 (primary screen)
Cell system: human C33A cervical carcinoma cells (HPV-negative) stably expressing BPV1 E2 and an HPV18 LCR luciferase reporter
Reagent: siRNA pool against human genes, 40 nM
Time to read-out: 72 h
Measurement: 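Per-well luciferase luminescence, z-scored on each plate against the plate mean and SD with control wells left out, then averaged across three replicate plates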
Reading the numbers: mean z-score and z-score: higher = stronger reporter signal, weaker E2 silencing
Call rule: 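Mean z ≥ 2 together with z ≥ 2 in two or more of the three replicates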

The opening 2 records as a preview:
| target gene | mean z-score | z-score, replicate A | z-score, replicate B | z-score, replicate C | Outcome |
| --- | --- | --- | --- | --- | --- |
| MBTPS1 (membrane bound transcription factor peptidase, site 1) | -0.74 | -0.55 | -0.99 | -0.67 | inactive |
| ACOXL-AS1 (ACOXL antisense RNA 1) | 2.14 | 1.65 | 1.78 | 2.98 | inactive |

The list itself, repeating the preview:
| target gene | mean z-score | z-score, replicate A | z-score, replicate B | z-score, replicate C | Outcome |
| --- | --- | --- | --- | --- | --- |
| MBTPS1 (membrane bound transcription factor peptidase, site 1) | -0.74 | -0.55 | -0.99 | -0.67 | inactive |
| ACOXL-AS1 (ACOXL antisense RNA 1) | 2.14 | 1.65 | 1.78 | 2.98 | inactive |
| PCDHA11 (protocadherin alpha 11) | -1.74 | -1.71 | -1.8 | -1.71 | inactive |
| HYI (hydroxypyruvate isomerase (putative)) | 1.08 | 0.77 | 1.05 | 1.42 | inactive |
| LCN6 (lipocalin 6) | 0.78 | 1.4 | 0.58 | 0.36 | inactive |
| CDKL1 (cyclin dependent kinase like 1) | 0.54 | 0.47 | 0.31 | 0.83 | inactive |
| RAPGEF4 (Rap guanine nucleotide exchange factor 4) | -0.14 | 0.2 | -0.11 | -0.5 | inactive |
| ZNF200 (zinc finger protein 200) | -1.97 | -1.61 | -1.94 | -2.37 | inactive |
| MYOZ3 (myozenin 3) | 0.64 | 0.8 | 0.4 | 0.72 | inactive |
| DIRAS2 (DIRAS family GTPase 2) | -0.76 | -0.73 | -0.65 | -0.91 | inactive |
| ARAP2 (ArfGAP with RhoGAP domain, ankyrin repeat and PH domain 2) | 1.52 | 1.28 | 1.86 | 1.44 | inactive |
| COLGALT2 (collagen beta(1-O)galactosyltransferase 2) | 0.93 | 0.99 | 0.76 | 1.03 | inactive |
| GLCE (glucuronic acid epimerase) | 0.44 | 0.23 | 0.41 | 0.68 | inactive |
| SPATA31A7 (SPATA31 subfamily A member 7) | 0.04 | -0.26 | 0.31 | 0.07 | inactive |
| MIR7-3HG (MIR7-3 host gene) | -0.26 | -0.46 | -0.09 | -0.24 | inactive |
| INTU (inturned planar cell polarity protein) | 0.58 | 1.01 | 0.61 | 0.13 | inactive |
| PRSS36 (serine protease 36) | -0.99 | -0.83 | -1.13 | -1.01 | inactive |
| OLFM1 (olfactomedin 1) | -0.42 | -0.41 | -0.64 | -0.2 | inactive |
| SPTLC2 (serine palmitoyltransferase long chain base subunit 2) | -0.01 | 0.09 | -0.22 | 0.11 | inactive |
| PLCZ1 (phospholipase C zeta 1) | 0.82 | 1.01 | 0.85 | 0.61 | inactive |
| CCDC8 (coiled-coil domain containing 8 subunit of 3M complex) | -1.14 | -0.88 | -1.25 | -1.28 | inactive |
| TRIM50 (tripartite motif containing 50) | -0.95 | -0.7 | -0.7 | -1.44 | inactive |
| KLK13 (kallikrein related peptidase 13) | -0.85 | -0.97 | -0.44 | -1.13 | inactive |
